Measurements published in patent US20250270296A1 (ACADEMIA SINICA, published 2025).

Target: S protein of SARS-CoV-2 variant B.1.526 (NY, Iota), full length, on pseudovirus (SARS-CoV-2, UniProt P0DTC2 14-1273)
Assay: cell-based or functional assay

B1: RBD-chAb-45 (antibody, V domains shown)
VH: EVQLQQSGPELVKPGASVKISCKTSGYTFTEYTIYWVKQSLGKSLEWIGGNNPNNDDTTYKQFFKGKATLTVDKSSSTAYMELRSLTSEDSAVYYCARDGYPYYYALDFWGQGTSVTVSS
VL: DILMTQSQKFMSTSVGDRVSVTCKSSQNVGTNVAWYQQKPGQSPKALIYSASYRYSGVPDHFTGSGSGTDFTLTISNVQSADLAEYFCQQYNNYPWTFGGGTKLDIK
In the case of B1, the “SARS-CoV-2 pseudovirus IC50” value is reported as 4.23 ng/mL.
